Several values for one entry are separate records, joined by “and”; a condition that tells them apart may be missing. Identical values can stand only once. Like-named read-outs stand apart in the source and are kept apart here.
Tested on: human lung epithelial cancer cell line A549
Details: LD50 in A549 divided by IC50 with ResGlp
Description: The cells were maintained in Dulbecco’s modified Eagle medium (DMEM) containing 10% fetal bovine serum (FBS) and 1% penicillin-streptomycin. At passage 11, 10^5 cells were transferred into each well of 96-well plates and cultured for 18 to 24 h to allow the cells to adhere to the well surface. Next, the medium was removed, and fresh medium containing the selected compounds at concentration range of 1 to 512 μM was added to the wells. Controls with equivalent serial concentrations of DMSO were also evaluated and compared with a control without DMSO. The plate was incubated at 37°C with 5% CO2. After 24 h, the supernatant was removed and 50 μL of 5 mg/mL 3-(4,5-dimethylthiazol-2-yl)-2,5-diphenyltetrazoliumbromide (MTT) solution in PBS was added to each well. The plates were incubated for an additional 4 h, and the formazan crystals formed inside the cell were dissolved by adding 50 μL DMSO. Next, the absorbance was measured at 570 nm, and the calculated LD50 was divided by the IC50 of each hit in order to determine the SI of each compound.

CC(Cc1ccc2c(c1)OCO2)c1c(-c2ccccc2)ncn1CCO (stereo not drawn) [Hit C]
SI (LD50/IC50): 730

Cc1[nH]c2ccc(CNc3cc(N)ncn3)cc2c1C [Hit B]
SI (LD50/IC50) (listed as B): 350.2 and > 350 | SI (LD50/IC50) (listed as hit B): 350

Reference: PMC10128061, “Targeting Sterylglucosidase A to Treat Aspergillus fumigatus Infections” (mBio, 2023)
